Results of unrelated studies side by side (data: NIAID ChemDB).

Common to all: enzyme or target tests; organism: HIV-1; protein: Reverse transcriptase

a–b is a range or a potency band.

smiles | strain | mutations | endpoint | read by | value
O=C(CSc1nnc(Br)n1-c1ccc(C2CC2)cc1Cl)Nc1ccc(C(=O)O)cc1Cl |  | RT-Y181C | IC50 | nucleotide incorporation / radiometric | <0.05 µM
Cc1cc(S(N)(=O)=O)ccc1NC(=O)CSc1nnc(CF)n1-c1c(C)cc(C)c2ccccc12 |  |  | IC50 | nucleotide incorporation / radiometric | <0.05 µM
CCN1c2ncc(CCOc3ccc(C4CC4C(=O)O)c4ccccc34)cc2C(=O)N(C)c2ccc(F)nc21 |  | RT-V106A | IC50 | nucleotide incorporation / radiometric | 0.1–1 µM
CCOC(=O)[C@H](Cc1ccc(O)cc1)NC(=O)c1ccc(NC(=O)CSc2nnc(Br)n2-c2ccc(C3CC3)c3ccccc23)c(Cl)c1 |  |  | IC50 | nucleotide incorporation / radiometric | 0.05–0.1 µM
O=C(CSc1nnc(Br)n1-c1ccc(C2CCC2)c2ccccc12)Nc1ccc(C(=O)O)cc1Cl |  | RT-Y188L | IC50 | nucleotide incorporation / radiometric | >0.1 µM
c1ccc2c(c1)c(N1CCc3[nH]ccc3C1)nn1c(C3CC3)nnc21 | KER2008 |  | IC50 | RT activity / fluorescence | 4.01 µM
CCN1c2ncc(CCOc3ccc(NS(C)(=O)=O)c4ccccc34)cc2C(=O)N(C)c2ccc(F)nc21 |  | RT-K103N Y181C | IC50 | nucleotide incorporation / radiometric | <0.1 µM
Cc1cc(C2CC2)ccc1-n1c(Br)nnc1SCC(=O)Nc1ccc(S(N)(=O)=O)cc1Cl |  | RT-Y181C | IC50 | nucleotide incorporation / radiometric | <0.05 µM
CN(CCc1cc[n+]([O-])cc1)C(=O)COc1ccc(NC(=O)CSc2nnnn2-c2ccc(C3CC3)cc2Cl)c(Cl)c1 |  | RT-K103 Y181C | IC50 | PicoGreen / fluorescence | <1 µM
CCc1ccc(-n2c(Br)nnc2SCC(=O)Nc2ccc(C(=O)NCC3CCCCC3)cc2Cl)c2ccccc12 |  | RT-Y188L | IC50 | nucleotide incorporation / radiometric | >0.1 µM
CC(=O)Nc1ccc2c(c1)CN(c1nn3c(C)nnc3c3ccccc13)CC2 | 98US_MSC5016 |  | IC90 | RT activity / fluorescence | 24.1 µM
CCN1c2ncc(CCOc3ccc(C(=O)O)c4c3CCN(S(=O)(=O)N(C)C)C4)cc2C(=O)N(C)c2cccnc21 |  | RT-Y188L | IC50 | nucleotide incorporation / radiometric | 0.1–1 µM
CC(C)(C#Cc1ccc(NC(=O)CSc2nnnn2-c2ccc(C3CC3)cc2Cl)c(Cl)c1)C(=O)NS(=O)(=O)c1ccccc1 | WT |  | IC50 | PicoGreen / fluorescence | <1 µM
CCc1ccc(-n2c(Br)nnc2SCC(=O)Nc2ccc(C(=O)NCCN3CCCC3)cc2Cl)c2ccccc12 |  | RT-Y181C | IC50 | nucleotide incorporation / radiometric | <0.05 µM
CNC(=O)c1ccc(NC(=O)CSc2nnnn2-c2ccc(C)cc2Cl)c(Cl)c1 |  | RT-K103 Y181C | IC50 | PicoGreen / fluorescence | <1 µM
CCOC(=O)CCNC(=O)c1ccc(NC(=O)CSc2nnc(Br)n2-c2ccc(CC)c3ccccc23)c(Cl)c1 |  | RT-Y188L | IC50 | nucleotide incorporation / radiometric | 0.05–0.1 µM
CCc1cc(NCc2nc3c(C)ccc(C)c3o2)c(=O)[nH]c1C |  | RT-Y181C | IC50 | nucleotide incorporation | 34.5 µM
CCc1ccc(-n2c(Br)nnc2SCC(=O)Nc2ccc(C(=O)NCC(=O)O)cc2Cl)c2ccccc12 |  | RT-Y181C | IC50 | nucleotide incorporation / radiometric | <0.05 µM
CC(C)(C#Cc1ccc(NC(=O)CSc2nnnn2-c2cc(C(F)(F)F)ccc2Cl)c(Cl)c1)NC(=O)c1cc[n+]([O-])cc1 | WT |  | IC50 | PicoGreen / fluorescence | <1 µM
CCc1ccc(-n2c(SCC(=O)Nc3ccc(S(N)(=O)=O)cc3Cl)nnc2C(F)F)c2c1CCCC2 |  | RT-Y181C | IC50 | nucleotide incorporation / radiometric | <0.05 µM
CCN1c2ncc(CCOc3ccc(C(=O)NC(C)(C)C(=O)O)cc3C)cc2C(=O)N(C)c2cccnc21 | IIIB |  | IC50 | nucleotide incorporation / radiometric | <0.05 µM
Cc1ccc(-n2c(SCC(=O)Nc3ccc(S(=O)(=O)NCCC(=O)O)cc3Cl)nnc2C(F)F)c2c1CCCC2 |  | RT-Y188L | IC50 | nucleotide incorporation / radiometric | >0.1 µM
CC(C)(C)c1ccc(-n2nnnc2SCC(=O)Nc2ccc(-c3cccc(C(=O)O)c3)cc2Cl)c(Cl)c1 | WT |  | IC50 | PicoGreen / fluorescence | <1 µM
CCN1c2ncc(CCOc3ccc(C(C)CC(=O)O)c4ccccc34)cc2C(=O)N(C)c2cccnc21 |  | RT-V106A | IC50 | nucleotide incorporation / radiometric | >1 µM
CCc1ccc(-n2c(SCC(=O)Nc3ccc(C(=O)O)cc3Cl)nnc2C(F)F)c2ccccc12 |  |  | IC50 | nucleotide incorporation / radiometric | <0.05 µM
CCN1c2ncc(CCOc3ccc(Nc4cccc(CC(=O)O)c4)cc3C)cc2C(=O)N(C)c2cccnc21 | IIIB |  | IC50 | nucleotide incorporation / radiometric | <0.05 µM
CC(C)[C@H](NC(=O)c1ccc(NC(=O)CSc2nnc(Br)n2-c2ccc(C3CC3)c3ccccc23)c(Cl)c1)C(=O)O |  |  | IC50 | nucleotide incorporation / radiometric | 0.05–0.1 µM
FC(F)c1nnc2c3ccccc3c(N3CCc4ccccc4C3)nn12 | KER2008 |  | IC50 | RT activity / fluorescence | 0.29 µM
CC(C)(C)c1ccc(-n2nnnc2SCC(=O)Nc2ccc(NC(=O)C3CCCC3)cc2Cl)c(Cl)c1 |  | RT-K103 Y181C | IC50 | PicoGreen / fluorescence | <1 µM
COC(=O)[C@H](CC(C)C)NC(=O)c1ccc(NC(=O)CSc2nnc(Br)n2-c2ccc(C3CC3)c3ccccc23)c(Cl)c1 |  | RT-Y188L | IC50 | nucleotide incorporation / radiometric | 0.05–0.1 µM
Cc1ccc(-n2nnnc2SCC(=O)Nc2ccc(-c3ccc(CC(=O)NS(C)(=O)=O)cc3)cc2Cl)c(Cl)c1 |  | RT-K103 Y181C | IC50 | PicoGreen / fluorescence | <1 µM
CCN1c2ncc(CCOc3ccc(C(=O)O)c4ccccc34)cc2C(=O)N(C)c2ccc(F)nc21 |  | RT-Y188L | IC50 | nucleotide incorporation / radiometric | >1 µM
CC(C)(C#Cc1ccc(NC(=O)CSc2nnnn2-c2cc(Cl)c(C3CC3)cc2Cl)c(Cl)c1)C(=O)O | WT |  | IC50 | PicoGreen / fluorescence | <1 µM
CCc1ccc(-n2c(Br)nnc2SCC(=O)Nc2ccc(C(=O)NCCN(C)C)cc2Cl)c2ccccc12 |  | RT-Y188L | IC50 | nucleotide incorporation / radiometric | >0.1 µM
CC(C)(C)c1ccc(-n2nnnc2SCC(=O)Nc2ccc(OCC(=O)Nc3cccc(O)c3)cc2Cl)c(Cl)c1 |  | RT-K103 Y181C | IC50 | PicoGreen / fluorescence | <1 µM
c1ccc2c(c1)CCN(c1nn3c(-c4ccsc4)nnc3c3ccccc13)C2 | 98US_MSC5016 |  | IC50 | RT activity / fluorescence | 17.4 µM
CCN1c2ncc(CCOc3ccc(C(=O)NNCC(=O)O)cc3C)cc2C(=O)N(C)c2cccnc21 | IIIB | RT-K103N Y181C | IC50 | nucleotide incorporation / radiometric | >0.1 µM
CC(C)(C#Cc1ccc(NC(=O)CSc2nnnn2-c2ccc(C3CC3)cc2Cl)c(Cl)c1)NC(=O)CN1CCC(O)CC1 |  | RT-K103 Y181C | IC50 | PicoGreen / fluorescence | <1 µM
CN(CC(=O)O)C(=O)c1ccc(NC(=O)CSc2nnc(Br)n2-c2ccc(C3CC3)c3ccccc23)c(Cl)c1 |  | RT-Y188L | IC50 | nucleotide incorporation / radiometric | >0.1 µM
CN(C)c1ccc(NC(=O)c2ccc(NC(=O)CSc3nnnn3-c3ccc(C(C)(C)C)cc3Cl)c(Cl)c2)cc1 |  | RT-K103 Y181C | IC50 | PicoGreen / fluorescence | <1 µM
CCc1ccc(-n2c(Br)nnc2SCC(=O)Nc2ccc(C(=O)NCCO)cc2Cl)c2ccccc12 |  |  | IC50 | nucleotide incorporation / radiometric | <0.05 µM
CN(C)S(=O)(=O)c1ccc(NC(=O)CSc2nnnn2-c2ccc(C(C)(C)C)cc2Cl)c(Cl)c1 | WT |  | IC50 | PicoGreen / fluorescence | <1 µM
COc1ccc2cccc(-n3c(Br)nnc3SCC(=O)Nc3ccc(C(=O)O)cc3Cl)c2c1 |  | RT-Y181C | IC50 | nucleotide incorporation / radiometric | <0.05 µM
CCN1c2ncc(CCOc3ccc(C(=O)O)c4c3CCN(S(C)(=O)=O)C4)cc2C(=O)N(C)c2cccnc21 |  | RT-K103N Y181C | IC50 | nucleotide incorporation / radiometric | <0.1 µM
CCc1ccc(-n2c(Br)nnc2SCC(=O)Nc2ccc(C(=O)NCC(C)O)cc2Cl)c2ccccc12 |  | RT-Y181C | IC50 | nucleotide incorporation / radiometric | <0.05 µM
CC(C)(C)c1ccc(-n2nnnc2SCC(=O)Nc2ccc(NC(=O)Cc3cccc[n+]3[O-])cc2Cl)c(Cl)c1 |  | RT-K103 Y181C | IC50 | PicoGreen / fluorescence | <1 µM
Cc1cc(C2CC2)cc(C)c1-n1c(Br)nnc1SCC(=O)Nc1ccc(C(=O)O)cc1Cl |  |  | IC50 | nucleotide incorporation / radiometric | <0.05 µM
CC(C)(O)C#Cc1ccc(NC(=O)CSc2nnnn2-c2cc(Cl)c(C3CC3)cc2Cl)c(Cl)c1 |  | RT-K103 Y181C | IC50 | PicoGreen / fluorescence | <1 µM
CCc1ccc(-n2c(Br)nnc2SCC(=O)Nc2ccc(C(=O)NCC(C)(C)N)cc2Cl)c2ccccc12 |  | RT-Y181C | IC50 | nucleotide incorporation / radiometric | <0.05 µM
CCN1c2ncc(CCOc3ccc(NC(=O)CC4(C(=O)O)CCCC4)cc3C)cc2C(=O)N(C)c2cccnc21 | IIIB |  | IC50 | nucleotide incorporation / radiometric | <0.05 µM
CCCCNC(=O)c1ccc(NC(=O)CSc2nnc(Br)n2-c2ccc(CC)c3ccccc23)c(Cl)c1 |  | RT-Y181C | IC50 | nucleotide incorporation / radiometric | <0.05 µM
CC(C)(C)c1ccc(-n2nnnc2SCC(=O)Nc2ccc(C#CCCC(=O)O)cc2Cl)c(Cl)c1 |  | RT-K103 Y181C | IC50 | PicoGreen / fluorescence | <1 µM
CCN1c2ncccc2NC(=O)c2cc(CCOc3ccc(-c4ccc(CC(=O)O)cc4)cc3C)cnc21 | IIIB | RT-K103N Y181C | IC50 | nucleotide incorporation / radiometric | 0.05–0.1 µM
CC(C)(C#Cc1ccc(NC(=O)CSc2nnnn2-c2ccc(C3CC3)cc2Cl)c(Cl)c1F)OCCOc1ccncc1 | WT |  | IC50 | PicoGreen / fluorescence | <1 µM
CCN1c2ncc(CCOc3ccc(-c4cc(C(=O)O)ccc4OC)cc3C)cc2C(=O)N(C)c2cccnc21 | IIIB |  | IC50 | nucleotide incorporation / radiometric | <0.05 µM
CCc1ccc(-n2c(Br)nnc2SCC(=O)Nc2ccc(S(=O)(=O)O)cc2Br)c2ccccc12 |  |  | IC50 | nucleotide incorporation / radiometric | <0.05 µM
COC(=O)c1cccc(-c2ccc(NC(=O)CSc3nnnn3-c3ccc(C)cc3Cl)c(Cl)c2)c1 |  | RT-K103 Y181C | IC50 | PicoGreen / fluorescence | <1 µM
CCN1c2ncc(CCOc3cccc4c3ccc[n+]4[O-])cc2C(=O)N(C)c2ccc(Cl)nc21 |  | RT-Y181C | IC50 | nucleotide incorporation / radiometric | 0.022 µM
CCCc1ccc(-n2c(Br)nnc2SCC(=O)Nc2ccc(S(N)(=O)=O)cc2Cl)c2ccccc12 |  | RT-Y181C | IC50 | nucleotide incorporation / radiometric | <0.05 µM
CNC(=O)OCC(C)(C)C#Cc1ccc(NC(=O)CSc2nnnn2-c2ccc(C(C)(C)C)cc2Cl)c(Cl)c1 |  | RT-K103 Y181C | IC50 | PicoGreen / fluorescence | <1 µM
CCc1ccc(-n2c(Br)nnc2SCC(=O)Nc2ccc(C(=O)NCC(OC)OC)cc2Cl)c2ccccc12 |  |  | IC50 | nucleotide incorporation / radiometric | <0.05 µM
CC(C)(C#Cc1ccc(NC(=O)CSc2nnnn2-c2ccc3ncccc3c2Cl)c(Cl)c1)C(=O)O |  | RT-K103 Y181C | IC50 | PicoGreen / fluorescence | <1 µM
CCN1c2ncc(CCOc3ccc(C(=O)Nc4ccc(CC(=O)O)cc4)cc3C)cc2C(=O)Nc2c(C)ccnc21 | IIIB | RT-K103N Y181C | IC50 | nucleotide incorporation / radiometric | <0.05 µM
O=C(CSc1nnnn1-c1ccc(C2CC2)cc1Cl)Nc1ccc(C(=O)NCc2ccc[n+]([O-])c2)cc1Cl | WT |  | IC50 | PicoGreen / fluorescence | <1 µM
CC(C)=CCN1Cc2cccc3[nH]c(=S)n(c23)C[C@@H]1C |  | RT-Y181C | IC50 | nucleotide incorporation | 6.12 µM

For reference, 7 entries again:

smiles | strain | mutations | endpoint | read by | value
CC(C)(C)c1ccc(-n2nnnc2SCC(=O)Nc2ccc(NC(=O)C3CCCC3)cc2Cl)c(Cl)c1 |  | RT-K103 Y181C | IC50 | PicoGreen / fluorescence | <1 µM
CCN1c2ncc(CCOc3ccc(C(=O)O)c4c3CCN(S(=O)(=O)N(C)C)C4)cc2C(=O)N(C)c2cccnc21 |  | RT-Y188L | IC50 | nucleotide incorporation / radiometric | 0.1–1 µM
FC(F)c1nnc2c3ccccc3c(N3CCc4ccccc4C3)nn12 | KER2008 |  | IC50 | RT activity / fluorescence | 0.29 µM
CCN1c2ncc(CCOc3ccc(C(=O)O)c4c3CCN(S(C)(=O)=O)C4)cc2C(=O)N(C)c2cccnc21 |  | RT-K103N Y181C | IC50 | nucleotide incorporation / radiometric | <0.1 µM
CC(C)(C#Cc1ccc(NC(=O)CSc2nnnn2-c2ccc(C3CC3)cc2Cl)c(Cl)c1)C(=O)NS(=O)(=O)c1ccccc1 | WT |  | IC50 | PicoGreen / fluorescence | <1 µM
CN(C)c1ccc(NC(=O)c2ccc(NC(=O)CSc3nnnn3-c3ccc(C(C)(C)C)cc3Cl)c(Cl)c2)cc1 |  | RT-K103 Y181C | IC50 | PicoGreen / fluorescence | <1 µM
CC(C)(C#Cc1ccc(NC(=O)CSc2nnnn2-c2ccc(C3CC3)cc2Cl)c(Cl)c1)NC(=O)CN1CCC(O)CC1 |  | RT-K103 Y181C | IC50 | PicoGreen / fluorescence | <1 µM

ICn is the concentration giving n% inhibition. Blank or dashed fields: not listed here. Conditions beyond the fields shown may differ between rows.